Pooled drug test results. Numbers come from NIAID ChemDB, via PubChem.

All rows: growth or infection tests; agent: Plasmodium falciparum; endpoint: EC50

Blank or dashed fields: not listed here. ECn is the concentration giving n% inhibition of infection, replication or growth. Lines come from different laboratories, so protocols vary.

compound	read by	mutations	strain	cell line	value
CC(C)c1ccc(C2OOC(c3ccc(C=O)cc3)OO2)cc1	LDH		W2		6.99 µM
COc1cc(OC)c(C=C2SC(=O)N(Cc3ccc(F)cc3F)C2=O)c(OC)c1	fluorescence	Chloroquine-resistant	W2		>10 µM
C[C@@H]1CC[C@H]2[C@@H](C)C(=O)O[C@@H]3OC4(C)CC[C@@H]1[C@]32OO4	LDH		K1	Erythrocyte	0.006 µg/mL
Cc1cccc2c(Nc3ccc(S(N)(=O)=O)cc3)c3ccc([N+](=O)[O-])cc3nc12	flow cytometry		K1	Erythrocytes	0.5332 µM
O=C(CN1C(=O)SC(=Cc2ccc(OC(F)(F)F)cc2)C1=O)N1CCN(c2ccccc2)CC1	fluorescence	Chloroquine-resistant	W2		>10 µM
O=C(CC1NCCC[C@@H]1O)Cn1cnc2ccccc2c1=O	LDH / absorbance		FCR3	Human A+ erythrocytes	0.00142 µg/mL
CCOC(=O)c1cn(Cc2ccc(F)cc2)c2ccc3nc(-c4ccccc4)c(-c4ccccc4)nc3c2c1=O	fluorescence		W2		6.94 µM
CC(C)(c1ccccc1)c1ccc(OCCCn2ccnc2)cc1	flow cytometry		K1	Erythrocytes	>12.5 µM
COc1cc(OC)c(C=C2SC(=O)N(Cc3ccc(C(F)(F)F)cc3)C2=O)c(OC)c1	fluorescence	Chloroquine-resistant	W2		>10 µM
O=C(O)c1cn(C2CC2)c2cc(N3CCNCC3)c(F)cc2c1=O	fluorescence		W2		23.1 µM
CC(=O)C1C(=O)C=C(C)OC1=O.CCc1nc(N)nc(N)c1-c1ccc(Cl)cc1	LDH		Dd2		0.0089 µg/mL
CC(NCc1ccc(OCc2ccccc2)cc1)C(O)c1ccccc1	flow cytometry		3D7	Erythrocytes	3.9 µM
Cc1cccc(C=C2SC(=O)N(CC(=O)N3CCN(c4ccccc4)CC3)C2=O)c1	fluorescence	Chloroquine-resistant	W2		>10 µM
O=C(CC1NCCC[C@@H]1O)Cn1cnc2c(c1=O)CCCC2	LDH / absorbance		K1	Human A+ erythrocytes	0.0857 µg/mL
CCN(CC)CCCC(C)Nc1ccnc2cc(Cl)ccc12	broth dilution / radiometric		FcB1	human red blood cells	0.102 µM
O=c1c2ccccc2ncn1CCCC1NCCC[C@@H]1O	LDH / absorbance		K1	Human A+ erythrocytes	0.0236 µg/mL
CC1CCN(CCCCOc2ccc(C(=O)c3ccccc3)cc2)CC1	flow cytometry		K1	Erythrocytes	6.1 µM
C=C1C(=O)O[C@@H]2/C=C(\COC(C)=O)CC/C=C(/C=O)C[C@@H](O)[C@@H]12	LDH / absorbance		3D7		0.92 µg/mL
OC(COc1ccc(OCc2ccccc2)cc1)CN1CCCCC1	flow cytometry		K1	Erythrocytes	6.16 µM
O=c1c2ccccc2ncn1CCCC1NCC[C@@H]1O	LDH / absorbance		K1	Human A+ erythrocytes	>1 µg/mL
O=C(CN1C(=O)SC(=Cc2ccccc2Cl)C1=O)N1CCN(c2ccccc2)CC1	fluorescence	Chloroquine-resistant	W2		>10 µM
C[C@@H]1CC[C@H]2[C@@H](C)C(=O)O[C@@H]3OC4(C)CC[C@@H]1[C@]32OO4	SYBR Green / fluorescence	Multidrug-resistant	Dd2 (EF1)		0.0209 µM
O=C(CC1NCCC[C@@H]1O)Cn1cnc(-c2ccccc2)cc1=O	LDH / absorbance		K1	Human A+ erythrocytes	0.138 µg/mL
c1ccc(C(CCNCC2(c3ccc4c(c3)OCCO4)CCOCC2)c2ccccc2)cc1	flow cytometry		K1	Erythrocytes	5.22 µM
O=C(CC1NCCC[C@@H]1O)Cn1cncc(-c2ccccc2)c1=O	LDH / absorbance		FCR3	Human A+ erythrocytes	0.0422 µg/mL
Cc1ccc(OCC(O)CN2CCc3ccccc3C2)c(C(C)(C)C)c1	flow cytometry		K1	Erythrocytes	1.66 µM
O=C(CN1C(=O)SC(=Cc2ccc(C(F)(F)F)cc2)C1=O)N1CCN(c2ccccc2)CC1	fluorescence	Chloroquine-resistant	W2		>10 µM
c1ccc2cc(OCCCCCN3CCCCC3)ccc2c1	flow cytometry		3D7	Erythrocytes	>12.6 µM
C[C@@H]1CC[C@H]2[C@@H](C)C(=O)O[C@@H]3OC4(C)CC[C@@H]1[C@]32OO4	broth dilution / radiometric		F32	human red blood cells	0.0123 µM
O=C(CC1NCC[C@@H]1O)Cn1cnc2ccccc2c1=O	LDH / absorbance		K1	Human A+ erythrocytes	>1 µg/mL

The last 3 rows once more:

{"compound": "c1ccc2cc(OCCCCCN3CCCCC3)ccc2c1", "read by": "flow cytometry", "strain": "3D7", "cell line": "Erythrocytes", "value": ">12.6 µM"}
{"compound": "C[C@@H]1CC[C@H]2[C@@H](C)C(=O)O[C@@H]3OC4(C)CC[C@@H]1[C@]32OO4", "read by": "broth dilution / radiometric", "strain": "F32", "cell line": "human red blood cells", "value": "0.0123 µM"}
{"compound": "O=C(CC1NCC[C@@H]1O)Cn1cnc2ccccc2c1=O", "read by": "LDH / absorbance", "strain": "K1", "cell line": "Human A+ erythrocytes", "value": ">1 µg/mL"}